Data published in article PMC4560900, “High-throughput screening against thioredoxin glutathione reductase identifies novel inhibitors with potential therapeutic value for schistosomiasis” (Infectious Diseases of Poverty, 2015).

Protein sequences, listed by entry. Tags and fused reporters are not part of them. Residues count along the entry.
UniProt Q962Y6, 1-598: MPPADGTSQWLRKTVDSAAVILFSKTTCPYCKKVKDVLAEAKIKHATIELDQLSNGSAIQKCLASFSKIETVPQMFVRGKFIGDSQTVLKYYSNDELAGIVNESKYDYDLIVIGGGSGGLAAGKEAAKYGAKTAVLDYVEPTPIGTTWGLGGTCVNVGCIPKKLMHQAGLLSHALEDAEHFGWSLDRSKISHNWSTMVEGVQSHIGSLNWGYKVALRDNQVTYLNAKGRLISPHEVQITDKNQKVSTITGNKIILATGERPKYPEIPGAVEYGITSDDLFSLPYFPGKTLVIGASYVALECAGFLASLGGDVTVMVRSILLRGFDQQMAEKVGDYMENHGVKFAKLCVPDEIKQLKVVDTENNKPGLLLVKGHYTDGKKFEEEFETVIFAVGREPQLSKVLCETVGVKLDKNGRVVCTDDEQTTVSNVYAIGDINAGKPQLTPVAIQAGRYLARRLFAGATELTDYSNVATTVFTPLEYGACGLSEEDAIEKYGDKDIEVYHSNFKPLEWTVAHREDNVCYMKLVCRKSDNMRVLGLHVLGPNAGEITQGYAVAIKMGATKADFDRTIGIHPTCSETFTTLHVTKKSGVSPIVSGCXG

Key:
[1] = target: Thioredoxin glutathione reductase from S. mansoni (SmTGR) (Schistosoma mansoni, UniProt Q962Y6); assay: Endpoint SmTGR fluorescence (ThioGlo) assay; format: biochemical; conditions: inhibition of SmTGR; for Efficacy (%): 30 μM naphthazarin defined as 100 % inhibition, means ± SEM; for IC50: means ± SEM of at least three independent experiments
[2] = test system: larval worms (schistosomula); assay: Ex vivo cidal activity against cultured larval parasites (schistosomula); conditions: tested at 50, 25, 12.5, 6.25 and 3.125 μM, n.a. = no activity

## Sc1nc2c(s1)-c1ccccc1CC2
[1]
  Efficacy (%): 96.74 ± 0.72%
  IC50: 46.9 µM

## O=c1c(Cl)c2oc3ccc(Cl)cc3nc-2c(Cl)c1Cl
[1]
  Efficacy (%): 90.0 ± 1.379%
  IC50: 14.8 µM
[2]
  Larva: lowest concentration resulting in 100 % larval death at 48 hours: 12.5 µM

## CC12C=CC(C)(O1)C1C(=O)N(c3ccc(Br)cc3)C(=O)C12 (stereo not shown)
[1]
  Efficacy (%): 98.57 ± 1.36%
  IC50: 0.424 µM
[2]
  Larva: lowest concentration resulting in 100 % larval death at 48 hours: 50 µM

## CS(=N)c1ncc(C(F)(F)F)cc1Cl (stereo not shown)
[1]
  Efficacy (%): 73.87 ± 0.93%
  IC50: 6.72 µM
[2]
  Larva: lowest concentration resulting in 100 % larval death at 48 hours: 50 µM

## COCc1cc(C)nc(OCC(=O)NN=Cc2cc(I)cc(I)c2O)c1C#N
[1]
  Efficacy (%): 97.08 ± 1.53%
  IC50: 0.957 µM
[2]
  Larva: lowest concentration resulting in 100 % larval death at 48 hours: 50 µM

## CCOc1ccccc1N1C(=O)C2C3C=CC(C3=C(c3ccccc3)c3ccccc3)C2C1=O (stereo not shown)
[1]
  Efficacy (%): 98.99 ± 0.45%
  IC50: 4.48 µM

## O=[N+]([O-])c1cnc(Sc2nnc(O)n2C2CCCCC2)s1
[1]
  Efficacy (%): 98.23 ± 2.04%
  IC50: 1.04 µM
[2]
  Larva: lowest concentration resulting in 100 % larval death at 48 hours: 25 µM

## CS(=O)(=O)c1nsc(S(C)(=O)=O)c1C#N
[1]
  Efficacy (%): 98.56 ± 1.56%
  IC50: 3.55 µM

## O=C1C(Cl)=C(Sc2n[nH]c(=O)[nH]c2=O)C(=O)N1Cc1ccccc1
[1]
  Efficacy (%): 95.92 ± 0.12%
  IC50: 13.2 µM

## O=C(Nc1ccccc1)Oc1c(Br)cc2oc(=O)sc2c1Br
[1]
  Efficacy (%): 92.49 ± 1.05%
  IC50: 12.8 µM

## S=c1[nH]cnc2nc[nH]c12
[1]
  Efficacy (%): 97.06 ± 1.17%
  IC50: 3.29 µM

## O=c1c([N+](=O)[O-])c(Cl)c2ccccc2n1-c1ccccc1
[1]
  Efficacy (%): 72.99 ± 3.01%
  IC50: 5 µM
[2]
  Larva: lowest concentration resulting in 100 % larval death at 48 hours: 50 µM

## O=C(NC1C(Cl)=C(Cl)C(=O)N1Cc1ccccc1)c1ccccc1 (stereo not shown)
[1]
  Efficacy (%): 98.71 ± 0.83%
  IC50: 3.06 µM

## O=C(O)COc1ccc(N2C(=O)C=CC2=O)cc1
[1]
  Efficacy (%): 97.34 ± 3.30%
  IC50: 3.18 µM

## Oc1c(Cl)c(Cl)c2c(c1Cl)CC(O)O2 (stereo not shown)
[1]
  Efficacy (%): 98.70 ± 1.63%
  IC50: 2.61 µM
[2]
  Larva: lowest concentration resulting in 100 % larval death at 48 hours: 50 µM

## Cc1c(I)sc2[nH]c(=O)c(=O)[nH]c12
[1]
  Efficacy (%): 95.89 ± 4.91%
  IC50: 0.004 µM
[2]
  Larva: lowest concentration resulting in 100 % larval death at 48 hours: 50 µM

## CSc1nnc(SC2=CC(=O)CC(c3ccccc3)C2)s1 (stereo not shown)
[1]
  Efficacy (%): 94.49 ± 1.31%
  IC50: 4.9 µM

## Cc1nn(-c2ccccc2)c(O)c1C=NNc1ccccc1
[1]
  Efficacy (%): 98.46 ± 1.61%
  IC50: 2.12 µM
[2]
  Larva: lowest concentration resulting in 100 % larval death at 48 hours: 50 µM

## O=C1C=CC(=O)C(c2cccc(C(=O)O)c2)=C1
[1]
  Efficacy (%): 98.62 ± 1.50%
  IC50: 5.59 µM

## COc1ccc(O)c(C(=O)C2c3ccccc3C(=O)N2c2ccc(C)cc2)c1 (stereo not shown)
[1]
  Efficacy (%): 85.21 ± 2.02%
  IC50: 1.94 µM

## COc1ccc(S(=O)(=O)Oc2ccc3occ([N+](=O)[O-])c3c2)cc1
[1]
  Efficacy (%): 95.20 ± 2.54%
  IC50: 7.17 µM

## COC(=O)c1ccc(S(=O)(=O)CCOC(=O)c2cccc(Cl)c2)nc1
[1]
  Efficacy (%): 77.53 ± 0.99%
  IC50: 15.7 µM

## O=[N+]([O-])c1c(Br)sc(NCc2ccccc2)c1[N+](=O)[O-]
[1]
  Efficacy (%): 98.57 ± 0.63%
  IC50: 7.24 µM
[2]
  Larva: lowest concentration resulting in 100 % larval death at 48 hours: 50 µM

## O=C(CCS(=O)(=O)c1ccc(Br)cc1)c1ccc(Cl)cc1
[1]
  Efficacy (%): 78.09 ± 2.19%
  IC50: 8.64 µM

## CCC1COCCN1CCC(=O)c1ccc(N)cc1 (stereo not shown)
[1]
  Efficacy (%): 96.60 ± 0.67%
  IC50: 18.2 µM
[2]
  Larva: lowest concentration resulting in 100 % larval death at 48 hours: 12.5 µM

## CC(C)(C)c1nnc(Sc2ncc([N+](=O)[O-])s2)[nH]1
[1]
  Efficacy (%): 95.73 ± 0.86%
  IC50: 3.03 µM
[2]
  Larva: lowest concentration resulting in 100 % larval death at 48 hours: 6.25 µM

## O=[N+]([O-])c1sc2ccccc2c1-[n+]1ccccc1
[1]; tested form: bromide
  Efficacy (%): 94.87 ± 0.19%
  IC50: 1.35 µM

## Cc1ccc(NC(=O)C2=C(c3ccccc3)S(=O)(=O)CCS2(=O)=O)cc1
[1]
  Efficacy (%): 93.88 ± 0.17%
  IC50: 2.21 µM
[2]
  Larva: lowest concentration resulting in 100 % larval death at 48 hours: 25 µM

## Oc1ccc(C2CNCc3sccc32)c(Br)c1O (stereo not shown)
[1]
  Efficacy (%): 77.47 ± 1.08%
  IC50: 0.562 µM
[2]
  Larva: lowest concentration resulting in 100 % larval death at 48 hours: 50 µM

## O=C1c2ccc(S(=O)(=O)O)cc2-c2nc(-c3ccccc3)nc3ccc(Cl)c1c23
[1]
  Efficacy (%): 90.48 ± 1.06%
  IC50: 4.4 µM

## COc1ccc(CN2C(=O)C=CC2=O)cc1
[1]
  Efficacy (%): 98.48 ± 1.48%
  IC50: 1.45 µM
[2]
  Larva: lowest concentration resulting in 100 % larval death at 48 hours: 25 µM

## O=C(/C=C/Sc1nc[nH]n1)c1ccc(Cl)cc1
[1]
  Efficacy (%): 82.93 ± 1.20%
  IC50: 7.66 µM
[2]
  Larva: lowest concentration resulting in 100 % larval death at 48 hours: 3.125 µM

## COCc1cc(C)nc(NN=Cc2cc(Br)cc(I)c2O)c1C#N
[1]
  Efficacy (%): 97.86 ± 0.21%
  IC50: 3.58 µM
